Results of unrelated studies side by side (data: NIAID ChemDB).

All rows: tests in culture; agent: Herpes simplex virus 2; cells: VERO; measure: inhibition

Blank or dashed fields: not listed here.

| SMILES | strain or isolate | method | dose | value |
|---|---|---|---|---|
| CCCCCCCCCCCCCCCCCCCCCC(=O)OCC(CO[C@@H]1O[C@H](CO)[C@@H](O)[C@H](O)[C@H]1O)OC(=O)CCCCCCCCCCCCCCCCCCCCC | 186 | plaque count | 50 µg/mL | inactive |
| O=S(=O)(c1ccc(OCc2ccc(Cl)cc2)cc1)c1ccc(OCc2ccc(Cl)cc2)cc1 |  | plaque count | 1 µM | >50% |
| CC(C)=CCCC(CO)C1CCC2C3CC=C4C[C@H](O)[C@@H](O)CC4(C)C3CCC12C | G | plaque count | 80 µg/mL | 79.4% |
| CCCCCCCC/C=C\CCCCCCCC(=O)OC(COC(=O)CCCCCCCCCCCCCCCCCCCCC)CO[C@@H]1O[C@H](CO)[C@@H](O)[C@H](O)[C@H]1O | 186 | plaque count | 50 µg/mL | 10% |
| O=c1ccn([C@@H]2O[C@H](CO)[C@@H](O)[C@@H]2F)c(=O)[nH]1 | G | virus yield | 1 µM | 91.5% |
| CCC(=O)C(CCCCCCOc1ccc(OC)cc1Cl)C(=O)CC | 333 | plaque count | 5 µg/mL | 72% |
| Nc1ccn([C@H]2O[C@@H](CO)[C@H](O)[C@H]2F)c(=O)n1 | G | virus yield | 0.1 µM | 2% |
| CCCCCCCCCCCC(=O)OCC(CO[C@@H]1O[C@H](CO)[C@@H](O)[C@H](O)[C@H]1O)OC(=O)CCCCCCCCCCC | 186 | plaque count | 50 µg/mL | 50% |
| Cc1cn([C@@H]2O[C@H](CO)[C@@H](O)[C@@H]2F)c(=O)[nH]c1=O | G | virus yield | 1 µM | 82% |
| CC(C)=CCCC(COS(=O)(=O)O)C1CCC2C3CC=C4C[C@H](O)[C@@H](OS(=O)(=O)O)CC4(C)C3CCC12C | G | plaque count | 80 µg/mL | 95.5% |
| CCCCCCCCCCCC(=O)OC[C@H](CO[C@@H]1O[C@H](CO)[C@@H](O)[C@H](O)[C@H]1O)OC(=O)CCCCCCCCCCC | 186 | plaque count | 50 µg/mL | 50% |
| C/C=C/c1cn([C@H]2C[C@H](O)[C@@H](CO)O2)c(=O)[nH]c1=O | 72 | plaque count | 100 µM | 30% |
| CCCCCCCCCC(=O)OCC(CO[C@@H]1O[C@H](CO)[C@@H](O)[C@H](O)[C@H]1O)OC(=O)CCCCCCCCC | 186 | plaque count | 50 µg/mL | inactive |
| O=c1[nH]c(=O)n([C@@H]2O[C@H](CO)[C@@H](O)[C@@H]2F)cc1I | G | virus yield | 0.1 µM | 60% |
| C/C=C/c1cn([C@@H]2O[C@H](CO)[C@@H](O)[C@@H]2O)c(=O)[nH]c1=O | 91075 | plaque count | 250 µM | 0% |
| CC(=O)O[C@H]1CC2=CCC3C(CCC4(C)C(C(CCC=C(C)C)COS(=O)(=O)O)CCC34)C2(C)C[C@@H]1OS(=O)(=O)O | G | plaque count | 40 µg/mL | 91% |
| S=C(NCCc1ccccc1)Nc1ccc(Oc2ccc(NC(=S)NCCc3ccccc3)cc2)cc1 |  | plaque count | 1 µM | <50% |

For reference, 2 entries again:

| SMILES | strain or isolate | method | dose | value |
|---|---|---|---|---|
| CCCCCCCCCCCCCCCCCCCCCC(=O)OCC(CO[C@@H]1O[C@H](CO)[C@@H](O)[C@H](O)[C@H]1O)OC(=O)CCCCCCCCCCCCCCCCCCCCC | 186 | plaque count | 50 µg/mL | inactive |
| Cc1cn([C@@H]2O[C@H](CO)[C@@H](O)[C@@H]2F)c(=O)[nH]c1=O | G | virus yield | 1 µM | 82% |

Percent inhibition refers to the dose given; in toxicity tests it is the harm to the cells. "inactive" is the filed call at that dose; no cut-off is given. Neighbouring rows are from separate reports.